Pooled drug test results. Numbers come from NIAID ChemDB, via PubChem.

Shared fields: host cell toxicity; cell line: HepG2; measure: CC50

Two numbers with a dash give a range or band. CCn is the concentration with n% toxicity to the cells. Conditions beyond the fields shown may differ between rows. An empty or dashed field is not shown.

SMILES	read by	result
CNC(=O)c1ccc(-n2c([C@@H](O)C(C)C)nc3c(c2=O)C[C@@H](C)N(C(=O)c2ccc(Br)c(C(F)(F)F)c2)C3)cc1	luminescence	>50 µM
CC(C)Cc1ccc2c(NCCCNCc3ccco3)ccnc2c1	fluorescence	16 µM
CCOC(=O)CCCCCOc1cccc(CN(C(=O)c2ccc(-c3cccc(Cl)c3)cc2)C(C)C)c1		<13.5 µM
Cc1cc(NC(=O)c2c(C)c(C(=O)C(=O)N[C@H]3CCCC(F)(F)[C@@H]3O)n(C)c2C)ccc1F	MTT	>30 µM
C=CCCCC(=O)NCC(c1ccc2c(c1)OCO2)C1OCCO1		>20 µM
Cc1cc(NC(=O)c2c(C)c(C(=O)C(=O)NC3(C)CCC(O)CC3)n(C)c2CC2CC2)ccc1F	MTT	>30 µM
COc1cccc(CNCCCNc2ccnc3cc(Oc4ccc(F)cc4)ccc23)c1O	fluorescence	11 µM
CCOC(=O)CCCCCOc1cccc(CN(C(=O)c2ccc(-c3cccc(C(C)=O)c3)cc2)C(C)C)c1		>20 µM
COc1ccc(Oc2ccc3c(NCCCNCc4cccc(OC)c4O)ccnc3c2)cc1	fluorescence	5.5 µM
CC(C)N(Cc1cccc(OCCCCCC(=O)OC(=O)O)c1)C(=O)c1ccc(-c2cc3ccccc3n2S(=O)(=O)c2ccccc2)cc1		>20 µM
Cc1c(C(=O)Nc2cc(Cl)cc(Cl)c2)c(C)n(C)c1C(=O)C(=O)NC1CCC(O)CC1	MTT	5–30 µM
CNC(=O)CC1CC(n2c(NC(C)C)nc3c(c2=O)C[C@@H](C)N(C(=O)c2ccc(Cl)c(C(F)(F)F)c2)C3)C1	luminescence	>50 µM
CCOC(=O)CCCCCOc1cccc(CN(C(=O)c2ccc(-c3cccc(CC(=O)O)c3)cc2)C(C)C)c1		>20 µM
COc1ccc(F)cc1CNCCCNc1ccnc2cc(Oc3ccccc3)ccc12	fluorescence	1.5 µM
CNC(=O)c1ccc(-n2c([C@@H]3CC3(F)F)nc3c(c2=O)C[C@@H](C)N(C(=O)c2ccc(Cl)c(C(F)(F)F)c2)C3)cc1	luminescence	27 µM
COc1ccc(-c2ccc3c(NCCCNCc4ccco4)ccnc3c2)cc1	fluorescence	6 µM
C=CCCC1=NCC(OC(C)=O)c2cc(OC)c(OC)cc21		>20 µM
COc1ccc(F)cc1CNCCCNc1ccnc2cc(-c3ccc(F)cc3)ccc12	fluorescence	0.77 µM
Cc1cc(NC(=O)c2c(C)c(C(=O)C(=O)NC3(C)CC(O)C3)n(C)c2-c2ccsc2)ccc1F	MTT	5–30 µM
COc1cccc(CNCCCNc2ccnc3cc(Oc4ccc(Cl)cc4)ccc23)c1O	fluorescence	5.7 µM
Cc1cc(NC(=O)c2c(C)c(C(=O)C(=O)NC3(C)CNC(=O)C34CC4)n(C)c2C)ccc1F	MTT	>30 µM
COc1cc(C)ccc1OCCOc1ccccc1F		>20 µM
Cc1cc(NC(=O)c2c(C)c(C(=O)C(=O)NC3CCCN(CC(=O)O)C3)n(C)c2C)ccc1F	MTT	>30 µM
CNC(=O)c1ccc(-n2c(NC(C)C)nc3c(c2=O)C[C@@H](C)N(C(=O)c2ccc(Br)c(C(F)F)c2)C3)cc1	luminescence	>50 µM
O=C(Nc1ccc2c(c1)OCO2)c1cc(-c2cccs2)nc2ccccc12		>20 µM
Cc1cc(NC(=O)c2c(C)c(C(=O)C(=O)N[C@H]3[C@@H]4CC[C@@H](C4)[C@H]3CO)n(C)c2C)ccc1F	MTT	>30 µM
CCOC(=O)COc1ccc(CNC(C)C)cc1		>20 µM
CCn1nc(-n2c(NC(C)C)nc3c(c2=O)C[C@@H](C)N(C(=O)c2ccc(Cl)c(C(F)(F)F)c2)C3)cc1C(=O)NC	luminescence	>50 µM

The last 3 rows once more:

SMILES	read by	result
Cc1cc(NC(=O)c2c(C)c(C(=O)C(=O)N[C@H]3[C@@H]4CC[C@@H](C4)[C@H]3CO)n(C)c2C)ccc1F	MTT	>30 µM
CCOC(=O)COc1ccc(CNC(C)C)cc1		>20 µM
CCn1nc(-n2c(NC(C)C)nc3c(c2=O)C[C@@H](C)N(C(=O)c2ccc(Cl)c(C(F)(F)F)c2)C3)cc1C(=O)NC	luminescence	>50 µM